Measurements published in patent EP2742937A1, “Compositions for use in the treatment of bacterial infections” (LIONEX Diagnostics and Therapeutics GmbH, priority 2012, dated 2014).

Tested on: L929 cell line
Assay: MTT cell proliferation assay (in vitro toxicity)
Format: cell-based, mouse
Conditions: IC50 from MTT assay divided by in vitro MIC (M. tuberculosis H37Rv)

Compound | In vitro toxicity with L929 cell line SI | In vitro toxicity with L929 cell line SI (listed as Myxopyronin) | In vitro toxicity with L929 cell line SI (listed as myxopyronin A)
C/C=C/C/C=C(\C)C(O)CC/C(C)=C/C=C(\C)C(=O)c1c(O)cc([C@H](C)CC/C=C/NC(=O)OC)oc1=O (stereo partly shown) [Corallopyronin] | 2 |  | 
CCCC(C)=CC=C(C)C(=O)c1c(O)cc(C(C)CCC=CNC(=O)OC)oc1=O (stereo not shown) [Myxopyronin A] | >16 | more than 16 | greater than 16
